Results as given in PMC10012172, “Chimeric Peptidomimetic Antibiotic Efficiently Neutralizes Lipopolysaccharides (LPS) and Bacteria-Induced Activation of RAW Macrophages” (ACS Infectious Diseases, 2023).
Where a SMILES comes first, the peptide text is derived from it. Bridges are numbered along the chain shown (N, C = ends). Roman numbers before positions name the chains, in order. [ ]: non-standard residue; d: D form. Tle = CC(C)(C)[C@H](N)C(=O)O; dDab = NCC[C@@H](N)C(=O)O; hSer = N[C@@H](CCO)C(=O)O; Orn = NCCC[C@H](N)C(=O)O; Dab = NCC[C@H](N)C(=O)O

The molecules below were run on E. coli O111:B4 LPS (assay: Isothermal titration calorimetry (ITC) of LPS binding). Details: 30 μM peptide, 200 μM LPS in 50% PBS, 37 °C, representative of two measurements.
Experimental: Figure 6 (A) Binding profile of LPS and the peptides using ITC. Binding signatures (ΔG, ΔH. and −TΔS) plotted for binding events of LPS with peptides. (B) Spectra of the interaction between LPS and peptides. Murepavadin, PMB, MHM, PMBN, and CPA (30 μM) were titrated against 200 μM E. coli O111:B4 LPS, and heat rates were recorded. Shown is a representative of two measurements.
ITC measurements were performed in a low volume NanoITC (TA Instruments-Waters LLC, New Castle, DE). Two hundred micromolar LPS (from E. coli O111:B4) was prepared in 50% PBS. Peptides of 30 μM concentration were prepared in identical buffer. Three hundred microliters of the peptide solution was added to the chamber (chamber volume is 169 μL, so the rest of the volume flows out and rests around the chamber), and 50 μL of LPS was added to the syringe. At 37 °C, 2 μL of LPS solution was injected into the chamber every 300 s, except the first injection, which consists of 0.96 μL. The experiments were performed at 37 °C while stirring at 300 rpm. The data was analyzed with the NanoAnalyze Software (TA Instruments, Asse, Belgium).

Molecule	n (binding stoichiometry) of peptide–LPS binding
CC(C)C[C@@H]1NC(=O)[C@@H](Cc2ccccc2)NC(=O)[C@H](CCN)NC(=O)[C@@H](NC(=O)[C@H](CCN)NC(=O)[C@@H](NC(=O)[C@H](CCN)NC(=O)CC[C@@H]2NC(=O)[C@H](CCN)NC(=O)[C@H](Cc3ccc(O)cc3)NC(=O)[C@H]([C@@H](C)O)NC(=O)[C@H](C(C)C)NC(=O)[C@@H]3CCCN3C(=O)[C@@H](C)NC(=O)[C@H](CO)NC(=O)[C@H](C)NC(=O)[C@H](C(C)(C)C)NC(=O)[C@H](CCO)NC(=O)[C@H](Cc3c[nH]c4ccccc34)NC(=O)[C@H](CCO)NC(=O)[C@@H](CCN)NC2=O)[C@@H](C)O)CCNC(=O)[C@H]([C@@H](C)O)NC(=O)[C@H](CCN)NC(=O)[C@H](CCN)NC1=O [CPA] (I: cyclo([dDab][hSer]W[hSer][Tle]AS[dA]PVTY[Dab]E) / II: [Dab]T[Dab][Dab][Dab][dF]L[Dab][Dab]T; amide I:14-II:N (inferred); lactam II:4-II:C (inferred); ring closure inferred)	0.5
CC(C)[C@@H]1NC(=O)[C@@H]2CCCN2C(=O)[C@@H](C)NC(=O)[C@H](CO)NC(=O)[C@H](C)NC(=O)[C@H](C(C)(C)C)NC(=O)[C@H](CCO)NC(=O)[C@H](Cc2c[nH]c3ccccc23)NC(=O)[C@H](CCO)NC(=O)[C@@H](CCN)NC(=O)[C@H](CCC(=O)O)NC(=O)[C@H](CCN)NC(=O)[C@H](Cc2ccc(O)cc2)NC(=O)[C@H]([C@@H](C)O)NC1=O [MHM] (cyclo(VTY[Dab]E[dDab][hSer]W[hSer][Tle]AS[dA]P))	0.3
CC(C)C[C@@H]1NC(=O)[C@@H](Cc2ccccc2)NC(=O)[C@H](CCN)NC(=O)[C@@H](NC(=O)[C@H](CCN)NC(=O)[C@@H](N)[C@@H](C)O)CCNC(=O)[C@H]([C@@H](C)O)NC(=O)[C@H](CCN)NC(=O)[C@H](CCN)NC1=O [PMBN, polymyxin B nonapeptide] (H-T[Dab][Dab][Dab][dF]L[Dab][Dab]T; lactam 3-C (inferred); N-terminus assumed)	0.4
CC[C@H](C)[C@@H]1NC(=O)[C@H](Cc2c[nH]c3ccccc23)NC(=O)[C@H]([C@@H](C)O)NC(=O)[C@@H]2CCCN2C(=O)[C@H]2CCCN2C(=O)[C@H](CO)NC(=O)[C@H](C)NC(=O)[C@H](CCN)NC(=O)[C@H](CCN)NC(=O)[C@H](Cc2c[nH]c3ccccc23)NC(=O)[C@H](CCN)NC(=O)[C@@H](CCN)NC(=O)[C@H](CCCN)NC(=O)[C@H](CCN)NC1=O [murepavadin] (cyclo(TWI[Dab][Orn][dDab][Dab]W[Dab][Dab]AS[dP]P))	0.4
polymyxin B [PMB]	0.6
